Assay [1] can be described thus: Potency to inhibit African Sierra Leone(D-6) clone relative to artemisinin. In kind it is functional. In a few lines: (§1)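 Ratio of artemisinin IC50 to test-compound IC50, both measured in the same [3H]hypoxanthine microdilution assay against the named clone. Parasites were at 0.5% parasitemia and 1% hematocrit, exposed for 24 h at 37 °C under low oxygen, then labelled for 18–20 h. IC50s came from a four-parameter logistic fit of duplicate wells.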

Assay [2] can be described thus: Potency to inhibit Indochina(W-2) clone relative to artemisinin. It is filed as functional. In a few lines:
as §1

This passage reports Relative potency results from ChEMBL document CHEMBL1125468, “Extraordinarily potent antimalarial compounds: new, structurally simple, easily synthesized, tricyclic 1,2,4-trioxanes” (J Med Chem, 1992).

Structures are written as SMILES.

As for `CCOP(=S)(OCC)OCC[C@@H]1CCC[C@@H]2CC[C@]3(C)OO[C@]21[C@@H](OC)O3`, the Relative potency in assay [1] came out at 1.1; in assay [2], 3.5.

As to `CO[C@H]1O[C@]2(C)CC[C@H]3CCC[C@@H](CCOP(=O)(Oc4ccccc4)Oc4ccccc4)[C@]31OO2`, the Relative potency in assay [1] was 2.3; in assay [2], > 7.
